Results of unrelated studies side by side (data: NIAID ChemDB).

Shared fields: target-level tests

Fold resistance: result on the changed form divided by that on wild type. An empty or dashed field is not shown. Conditions beyond the fields shown may differ between rows. Inhibition is in % at the dose shown (toxicity tests: loss of growth or viability). ICn: concentration for n% inhibition.

SMILES,protein,read by,dose,mutations,read-out,result
Clc1cc(CN2CCCNCCNCCCNCC2)cc(Cl)n1,CXCR4,,,CXCR4-H203A,fold resistance,5.88
CN(C)CCCN1c2cc(Cl)ccc2Sc2cc(O)c(O)cc21,gp120,,,,IC50,200 µg/mL
O=S(=O)(c1cccc2cnccc12)N1CCNCC1,Protein kinase C,nucleotide incorporation,0.8 µg/mL,,inhibition,13.8%
O=C(O)c1cc(O)c(O)c(O)c1,CD4,flow cytometry,20 µg/mL,,inhibition,32%
Cc1cc(NC(=O)C(=O)NCCN2CCN(C(=O)c3ccccc3F)CC2)ccc1Br,Cyclophilin A,absorbance,,,IC50,53.4 µM
C=C1CN(S(=O)(=O)c2ccc(C)cc2)CCCN(Cc2ccccn2)CCCN(S(=O)(=O)c2ccc(C)cc2)C1,CD4,,,,IC50,76.2 µM
COc1cc2ccccc2oc1=O,Tat:TAR/LTR,,,,IC50,>100 µM
O=C(Oc1cc(O)cc2c1C[C@@H](OC(=O)c1cc(O)c(O)c(O)c1)[C@@H](c1cc(O)c(O)c(O)c1)O2)c1cc(O)c(O)c(O)c1,CXCR4,ELISA,20 µM,,inhibition,1%
Cn1c2ccccc2c(=O)c2c(O)cccc21,Protein kinase C,nucleotide incorporation,4 µg/mL,,inhibition,51.7%
C=C1CN(S(=O)(=O)c2ccc(C)cc2)CCCN(CCC)CCCN(S(=O)(=O)c2ccc(C)cc2)C1,CD4,,,,IC50,4.09 µM
Cn1c2ccccc2c(=O)c2c(O)cccc21,Protein kinase C,nucleotide incorporation,4 µg/mL,,inhibition,51.7%
O=C(c1ccccc1)N1C[C@@H](CN2CCC(c3ccccc3)CC2)[C@H](c2ccccc2)C1,CCR3,,,,IC50,0.71 µM
C[C@@H]1Cc2c(-c3cc(-c4cc(-c5c(O)cc(O)c6c5C[C@@H](C)N[C@@H]6C)c5ccccc5c4O)c(O)c4ccccc34)c(O)cc(O)c2[C@@H](C)N1,Protein kinase C,,,,IC50,36 µM
O=c1[nH]c2ccccc2c(-c2ccccc2)c1O,Tat:TAR/LTR,,,,IC50,>100 µM
C=C1CN(S(=O)(=O)c2ccc(Br)cc2)CCCN(Cc2ccccc2)CCCN(S(=O)(=O)c2ccc(Br)cc2)C1,CD4,,,,IC50,1.77 µM
CC(C)CN(CCC[C@H](NC(=O)c1ccc(CNCc2ncc[nH]2)cc1)C(=O)N[C@@H](C)c1cccc2ccccc12)CC(C)C,CXCR4,radiometric,,,IC50,<0.1 µM
O=c1cc(C(F)(F)F)c2ccc(O)cc2o1,Tat:TAR/LTR,,,,IC50,20 µM
C=C1CN(S(=O)(=O)c2ccc(C)cc2)CCCN(CC2CC2)CCCN(S(=O)(=O)c2ccc(C)cc2)C1,CD4,,,,IC50,5.24 µM
O=C(O)CCc1ccc(O)c(O)c1,CD4,flow cytometry,20 µg/mL,,inhibition,11%
O=C(O[C@@H]1Cc2c(O)cc(O)cc2O[C@@H]1c1cc(O)c(O)c(O)c1-c1c([C@H]2Oc3cc(O)cc(O)c3C[C@H]2OC(=O)c2cc(O)c(O)c(O)c2)cc(O)c(O)c1O)c1cc(O)c(O)c(O)c1,CXCR4,ELISA,20 µM,,inhibition,2%
C[C@H](NC(=O)[C@H](CCCSC(=N)N)NC(=O)c1ccc(CNCc2ccccn2)cc1)c1cccc2ccccc12,CXCR4,radiometric,,,IC50,<0.1 µM
CC(=O)CC1(O)c2c3[nH]c4ccccc4c3cc[n+]2C2C=CC=CC21,p56lck tyrosine kinase,ELISA,,,IC50,<300 µM
CC(C)[C@H](NC(=O)[C@H](Cc1ccccc1)C[C@H](O)[C@H](Cc1ccccc1)NC(=O)OC(C)(C)C)C(=O)N[C@@H](Cc1ccccc1)C(=O)N1CCOCC1,Cathepsin D,,,,IC50,0.004 µM
COc1ccccc1CNCCC[C@H](NC(=O)c1ccc(CNCc2ncc[nH]2)cc1)C(=O)N[C@@H](C)c1cccc2ccccc12,CXCR4,radiometric,,,IC50,<0.1 µM
CCOc1cccc(-c2cc(C(=O)N/N=C/c3ccc(OC)c(CN4CCOCC4)c3)c3ccccc3n2)c1,Cyclophilin A,absorbance,,,IC50,18.67 µM
O=C(O[C@@H]1Cc2c(O)cc(O)cc2O[C@@H]1c1cc(O)c(O)c(O)c1)c1cc(O)c(O)c(O)c1,CXCR4,ELISA,20 µM,,inhibition,7%
C=CCN(C(=O)OCc1ccccc1)C1CCN(CCC(C)(c2ccccc2)C2Nc3ccccc3S(=O)(=O)N2)CC1,CXCR4,,,,IC50,>1 µM
C=C1CN(S(=O)(=O)c2ccc(C)cc2)CCCN(C2CCCC2)CCCN(S(=O)(=O)c2ccc(C)cc2)C1,CD4,,,,IC50,8.29 µM
O=C(O)Cc1cc(O)ccc1O,CD4,flow cytometry,100 µg/mL,,inhibition,29%
COc1ccnc2[nH]cc(C(=O)C(=O)N3CCN(C(=O)c4ccccc4)C[C@H]3C)c12,gp120,radiometric,1 µM,,inhibition,20%
O=S(=O)(c1cccc2cnccc12)N1CCNCC1,Protein kinase C,nucleotide incorporation,100 µg/mL,,inhibition,64.4 ± 8%
O=C(Nc1cc(NC(=O)c2ccccc2)cc(-c2nc3ccccc3c(=O)o2)c1)c1ccccc1,Cyclophilin A,absorbance,,,IC50,56.2 µM
C[C@H](NC(=O)[C@H](CCCNC1CCCCC1)NC(=O)c1ccc(CNCc2ncc[nH]2)cc1)c1cccc2ccccc12,CXCR4,radiometric,,,IC50,<0.1 µM
COc1ccc(-c2cc(C(=O)Nc3ccc(S(=O)(=O)Nc4cc(C)nc(C)n4)cc3)c3ccccc3n2)cc1,Cyclophilin A,absorbance,,,IC50,21.65 µM
C=C1CN(S(=O)(=O)c2ccc(C)cc2)CCCN(CC(C)CC)CCCN(S(=O)(=O)c2ccc(C)cc2)C1,CD4,,,,IC50,0.99 µM
CCCCCCC[C@H]1CC2CCC3C(C(=O)OCCCCCCCCCC4N=C(N)N5CCCC5=C4C(=O)OCCCCN=C(N)N)=C(C)NC(=N1)N23,Protein kinase C,,,,IC50,1.5 µM
C=C1CN(S(C)(=O)=O)CCCN(Cc2ccccc2)CCCN(S(C)(=O)=O)C1,CD4,,,,IC50,107 µM
CCCCCCCCC[C@H]1CC2CCC3C(C(=O)OCCCCN=C(N)N)[C@@H](C)N=C(N1)N23,Protein kinase C,,,,IC50,11 µM
C=C1CN(S(=O)(=O)c2ccc(C)cc2)CCCN(Cc2cccnc2)CCCN(S(=O)(=O)c2ccc(C)cc2)C1,CD4,,,,IC50,4.83 µM
O=C(O)/C=C/c1ccc(O)c(O)c1,CD4,flow cytometry,20 µg/mL,,inhibition,58%
Cc1ccccc1CNCCC[C@H](NC(=O)c1ccc(CNCc2ncc[nH]2)cc1)C(=O)N[C@@H](C)c1cccc2ccccc12,CXCR4,radiometric,,,IC50,<0.1 µM
O=C1C=CC(=C(c2ccc(O)cc2)c2ccc(O)cc2)C=C1,CD4,flow cytometry,20 µg/mL,,inhibition,0%
C=C1CN(S(=O)(=O)c2ccc(C)cc2)CCCN(C(=O)OCC)CCCN(S(=O)(=O)c2ccc(C)cc2)C1,CD4,,,,IC50,11.1 µM

6 of the rows above, restated:

SMILES,protein,read by,dose,mutations,read-out,result
C=C1CN(S(=O)(=O)c2ccc(C)cc2)CCCN(C2CCCC2)CCCN(S(=O)(=O)c2ccc(C)cc2)C1,CD4,,,,IC50,8.29 µM
O=C(O)Cc1cc(O)ccc1O,CD4,flow cytometry,100 µg/mL,,inhibition,29%
O=C1C=CC(=C(c2ccc(O)cc2)c2ccc(O)cc2)C=C1,CD4,flow cytometry,20 µg/mL,,inhibition,0%
Clc1cc(CN2CCCNCCNCCCNCC2)cc(Cl)n1,CXCR4,,,CXCR4-H203A,fold resistance,5.88
O=C(Nc1cc(NC(=O)c2ccccc2)cc(-c2nc3ccccc3c(=O)o2)c1)c1ccccc1,Cyclophilin A,absorbance,,,IC50,56.2 µM
CCCCCCCCC[C@H]1CC2CCC3C(C(=O)OCCCCN=C(N)N)[C@@H](C)N=C(N1)N23,Protein kinase C,,,,IC50,11 µM